How the values were obtained:
[1] = system: HepG2 (human hepatoma cells); assay: Sulforhodamine B (SRB) cytotoxicity assay; format: cell-based; conditions: therapeutic index, IC50/GI50 value against H37Rv
[2] = system: A549 (human lung epithelial cells); assay: Sulforhodamine B (SRB) cytotoxicity assay; format: cell-based; conditions: therapeutic index, IC50/GI50 value against H37Rv

| Compound | HEPG2 TI [1] | A549 TI [2] |
| --- | --- | --- |
| COc1cc2c(cc1NC(=O)N1CCCCC1c1cccnc1)oc1ccccc12 (stereo not drawn) [Compound H15] | >50 | >50 |
| O=C(CC1(O)c2ccccc2-n2c1nc1ccccc1c2=O)c1ccccc1 (stereo not drawn) [Compound H26] | >50 | >50 |
| N#Cc1ccc(C(=O)CC2(O)c3ccccc3-n3c2nc2ccccc2c3=O)cc1 (stereo not drawn) [Compound H27] | >50 | >50 |
| O=C(CSc1nnc(COc2ccc(F)cc2)o1)OC1CCCCC1 [Compound H43] | >50 | >50 |
| Cc1nc(C)c(C(=O)N(c2cccc(C)c2C)C(C(=O)NC2CCCCC2)c2ccccc2)s1 (stereo not drawn) [Compound H85] | >50 | >50 |
| CCSc1nsc(NC(=O)Nc2ccc(C(F)(F)F)cc2)n1 [Compound H94] | >50 | >50 |
| Cc1ccc(-c2nc3ccccc3s2)cc1 [Compound H117] | >50 | >50 |
| Cc1ccc(C)c(Cn2nnc3c(O)nc(C4CCCN(C(=O)c5ccc(C(C)(C)C)cc5)C4)nc32)c1 (stereo not drawn) [Compound H126] | >50 | >50 |
| O=C(CSc1nnc2scc(-c3ccccc3)n12)Nc1ccc(N2CCCC2)cc1 [Compound H127] | >50 | >50 |
| Nc1ccc(C(=O)CSc2nnc3c(n2)CCCC3)cc1 [Compound H134] | >50 | >50 |
| Nc1ccc(C(=O)CC2(O)c3ccccc3-n3c2nc2ccccc2c3=O)cc1 (stereo not drawn) [Compound H136] | >50 | >50 |
| O=C(Cn1c(=O)n(Cc2ccc(F)cc2)c(=O)c2ccccc21)Nc1cc(F)ccc1F [Compound H137] | >50 | >50 |
